A mixed list of measured activities; the numbers were collected in NIAID ChemDB.

Shared fields: target-level tests; organism: Hepatitis C virus; protein: Nonstructural protein 3 protease

ICn is the concentration giving n% inhibition. An empty or dashed field is not shown. Conditions beyond the fields shown may differ between rows.

SMILES,read-out,strain,read by,result
COc1cc(/C=N/Nc2cc(C)nc3c(OC)cccc23)cc(OC)c1OC,IC50,,,>100 µg/mL
CCC[C@H](NC(=O)[C@@H]1[C@H]2CCC[C@H]2CN1C(=O)[C@@H](NC(=O)[C@@H](NC(=O)c1cnccn1)C1CCCCC1)C(C)(C)C)C(=O)C(=O)N[C@@H](C)C1CCCCC1,Ki,,,2.7 µM
C[C@@H]1C(=O)N(C(=O)C2CC2)[C@H]2CCN(C(=O)[C@@H]3CCCN3S(=O)(=O)c3cccc4c(N(C)C)cccc34)[C@H]12,IC50,,,97 µM
O=C(CSc1nc(-c2cccs2)c2c(n1)-c1ccccc1CC2)NN1C(=O)c2ccccc2C1=O,IC50,NS3-4A,PCR,0.145 µM
CC(C)(C)[C@H](NC(=O)[C@@H](NC(=O)c1cnccn1)C1CCCCC1)C(=O)N1CC2CCCC2[C@H]1C(=O)NC(CC(F)F)C(=O)C(=O)NC1CC1,Ki,,,0.025 µM
CCCC(NC(=O)[C@@H]1C2CCC(C2)N1C(=O)[C@@H](NC(=O)OC(C)(C)C)C1CCCCC1)C(=O)C(=O)NCC(=O)N[C@@H](C(=O)N(C)C)c1ccccc1,Ki,,,0.09 µM
CCCCCCCCCCCC1=C(O)C(=O)C=C(O)C1=O,IC50,,fluorescence,179.9 µM
O=C(O)CSc1nc(-c2cccs2)c2c(n1)-c1ccccc1CC2,IC90,NS3-4A,PCR,0.501 µM
CC(C)[C@H](NC(=O)OC(C)(C)C)C(=O)N1CC[C@H]2[C@H]1C1(CCCC1)C(=O)N2S(C)(=O)=O,IC50,,,31 µM
CC(=O)N1C(=S)NC2=C(CCc3ccccc32)C1c1cccs1,IC90,NS3-4A,PCR,1.89 µM
CCC[C@H](NC(=O)[C@@H]1C2CCCC2CN1C(=O)[C@@H](NC(=O)[C@@H](NC(=O)c1cnccn1)C1CCCCC1)C(C)(C)C)C(=O)C(=O)N[C@@H](C)c1ccncc1,Ki,,,0.053 µM
O=C(O)CC(C(=O)O)C1c2c(cc(O)c(O)c2O)C(=O)CC1C(=O)CC[C@H]1O[C@@H](OC(=O)c2cc(O)c(O)c(O)c2)[C@H](O)[C@@H](O)[C@@H]1O,IC50,,fluorescence,59.7 µM
CC(C)[C@H](NC(=O)OC(C)(C)C)C(=O)N1CC[C@H]2[C@H]1C(C1CCCC1)C(=O)N2S(C)(=O)=O,IC50,,,31 µM
O=C(OC1COC(=O)c2cc(O)c(O)c(O)c2-c2c(cc(O)c(O)c2O)C(=O)OC1C1OC(=O)c2cc(O)c(O)c(O)c2-c2c(O)c(O)c(O)c3c2C(=O)OC1C3O)c1cc(O)c(O)c(O)c1,IC50,,fluorescence,9.6 µM
CCC[C@H](NC(=O)[C@@H]1C2CCCC2CN1C(=O)[C@@H](NC(=O)[C@@H](NC(=O)c1cnccn1)C(C)(C)C)C(C)(C)C)C(=O)C(=O)NC1CC1,Ki,,,0.17 µM
CCCCCCCCCCCC1=C(O)C(=O)C=C(O)C1=O,IC50,,,21 µM
CCCC(NC(=O)[C@@H]1C2CCCC2CN1C(=O)[C@@H](NC(=O)[C@@H](NC(=O)c1cnccn1)C1CCCCC1)C(C)(C)C)C(=O)C(=O)N[C@@H](C)CC,Ki,,,0.136 µM
CC(C)[C@H](NC(=O)OC(C)(C)C)C(=O)N1CC[C@H]2[C@H]1C(C1CCC1)C(=O)N2S(C)(=O)=O,IC50,,,4.4 µM
CC(C)[C@H](NC(=O)OC(C)(C)C)C(=O)N1CC[C@H]2[C@H]1C(C)(C)C(=O)N2S(C)(=O)=O,IC50,,,34 µM
COc1ccc2c(O[C@@H]3C[C@H]4C(=O)C[C@]5(P(=O)(O)Cc6c(F)cccc6F)C[C@H]5CCCCCCC[C@H](CC(=O)OC5CCCC5)C(=O)N4C3)cc(-c3csc(NC(C)C)n3)nc2c1Cl,Ki,gt 3,fluorescence,0.104 µM
CC(C)[C@H](NC(=O)OC(C)(C)C)C(=O)N1CC[C@H]2[C@H]1C(C1CCCC1)C(=O)N2C(=O)C1CC1,IC50,,,2.5 µM
CCC[C@H](NC(=O)[C@@H]1[C@H]2CCC[C@H]2CN1C(=O)[C@@H](NC(=O)[C@@H](NC(=O)c1cnccn1)C1CCCCC1)C(C)(C)C)C(=O)C(=O)N[C@@H](C)Cc1ccccc1,Ki,,,0.046 µM